US4067986A, “Novel penicillanic acid” (Gist-Brocades N.V., priority 1974, dated 1978)
Converted amounts (≈) assume the structure as drawn.

Tests used:
[1] = tested on: Proteus mirabilis A 1200; assay: MIC, agar serial dilution test; type: cell-based
[2] = tested on: Klebsiella pneumoniae A 809; assay: MIC, agar serial dilution test; type: cell-based
[3] = tested on: Proteus rettgeri A 821; assay: MIC, agar serial dilution test; type: cell-based
[4] = tested on: Pseudomonas aeruginosa A 1058; assay: MIC, agar serial dilution test; type: cell-based
[5] = tested on: Proteus mirabilis A 1200; assay: MIC, micro serial dilution test; conditions: micro serial dilution test (brackets)
[6] = tested on: Diplococcus pneumoniae L 54; assay: MIC, micro serial dilution test; conditions: micro serial dilution test (brackets)
[7] = tested on: Brucella suis A 2126; assay: MIC, micro serial dilution test; conditions: micro serial dilution test (brackets)
[8] = tested on: Staphylococcus aur. A 355; assay: MIC, micro serial dilution test; conditions: micro serial dilution test (brackets), tables B-E
[9] = tested on: Pseudomonas aeruginosa A 1058; assay: MIC, micro serial dilution test; conditions: micro serial dilution test (brackets)
[10] = tested on: Salmonella dublin P 43; assay: MIC, agar serial dilution test
[11] = tested on: Staphylococcus aur. A 355; assay: MIC, agar serial dilution test; conditions: tables B-E
[12] = tested on: Staphylococcus aur. A 2001; assay: MIC, agar serial dilution test; conditions: tables B-E
[13] = tested on: Haemophilus suis A 2096; assay: MIC, micro serial dilution test; type: cell-based; conditions: micro serial dilution test (brackets)
[14] = tested on: Pseudomonas aerug. A 1058; assay: ABA test, antibacterial activity in urine of mice; conditions: urine of 21/2 hr, disc 7 mm
[15] = tested on: Salmon. typhimur. R 172; assay: ABA test, antibacterial activity in urine of mice; conditions: urine of 21/2 hr, disc 7 mm
[16] = tested on: Proteus morganii 2241; assay: ABA test, antibacterial activity in urine of mice; conditions: urine of 21/2 hr, disc 7 mm
[17] = tested on: Escherichia coli U 20; assay: ABA test, antibacterial activity in urine of mice; conditions: urine of 21/2 hr, disc 7 mm
[18] = tested on: Klebsiella pneum. A 809; assay: ABA test, antibacterial activity in urine of mice; conditions: urine of 21/2 hr, disc 7 mm
[19] = tested on: Proteus rettgeri A 821; assay: ABA test, antibacterial activity in urine of mice; conditions: urine of 21/2 hr, disc 7 mm
[20] = tested on: Proteus mirabil. L 93; assay: ABA test, antibacterial activity in urine of mice; conditions: urine of 21/2 hr, disc 7 mm
[21] = tested on: Proteus mirabil. H 3; assay: ABA test, antibacterial activity in urine of mice; conditions: urine of 21/2 hr, disc 7 mm
[22] = tested on: Pasteurella multocida A 723; assay: MIC, agar serial dilution test; type: cell-based
[23] = tested on: Salmonella typhimurium R 172; assay: MIC, agar serial dilution test; type: cell-based
[24] = tested on: Diplococcus pneumoniae L 54; assay: MIC, agar serial dilution test; type: cell-based
[25] = tested on: Streptococcus faecalis L 80; assay: MIC, agar serial dilution test; type: cell-based
[26] = tested on: Proteus mirabilis L 93; assay: MIC, agar serial dilution test; type: cell-based
[27] = tested on: Staphyl. aur A 321; assay: MIC, agar serial dilution test; conditions: tables B-D, column beside protection test
[28] = tested on: Staphylococcus aur. A 355; assay: ABA test, antibacterial activity in urine of mice; conditions: urine of 21/2 hr, disc 7 mm
[29] = tested on: Staphylococcus aur. A 2001; assay: ABA test, antibacterial activity in urine of mice; conditions: urine of 21/2 hr, disc 7 mm
[30] = tested on: Pseudomonas aeruginosa 2396; assay: MIC, agar serial dilution test; type: cell-based
[31] = tested on: Haemophilus suis A 2096; assay: MIC, agar serial dilution test; type: cell-based
[32] = tested on: Proteus mirabilis H 3; assay: MIC, agar serial dilution test; type: cell-based
[33] = tested on: Staphylococcus aur. A 2001; assay: MIC, micro serial dilution test; conditions: micro serial dilution test (brackets), tables B-E
[34] = tested on: Escherichia coli U 20; assay: MIC, agar serial dilution test
[35] = tables B-D, column beside protection test

CC1(C)S[C@@H]2[C@H](NC(=O)[C@H](NC(=O)NP(=O)(O)O)c3ccc(O)cc3)C(=O)N2[C@H]1C(=O)O
MIC ([1]; agar serial dilution): 3 µg/mL (≈ 6.14 µM)
MIC ([2]; agar serial dilution): > 100 µg/mL
MIC ([2]; tables B-E): > 100 µg/mL
MIC ([3]; agar serial dilution): 0.5 µg/mL (≈ 1.02 µM)
MIC ([4]; agar serial dilution): 3 µg/mL (≈ 6.14 µM)
MIC ([4]; tables B-E): 3 µg/mL (≈ 6.14 µM)
MIC [5]: 1.2 µg/mL (≈ 2.46 µM)
MIC [6]: 12 µg/mL (≈ 24.6 µM)
MIC [7]: 0.9 µg/mL (≈ 1.84 µM)
MIC [8]: 60 µg/mL (≈ 123 µM)
MIC [9]: 3.7 µg/mL (≈ 7.58 µM)
MIC ([9]; tables B-E): 3.7 µg/mL (≈ 7.58 µM)
MIC [10]: 6 µg/mL (≈ 12.3 µM)
MIC [11]: 100 µg/mL (≈ 205 µM)
MIC [12]: 50 µg/mL (≈ 102 µM)
MIC [13]: 0.9 µg/mL (≈ 1.84 µM)
ABA, inhibition zone of urine ([14]; 100 mg/kg i.p.): 20 mm
ABA, inhibition zone of urine ([14]; 100 mg/kg or.): 7 mm
ABA, inhibition zone of urine ([15]; 100 mg/kg i.p.): 33 mm
ABA, inhibition zone of urine ([15]; 100 mg/kg or.): 16 mm
ABA, inhibition zone of urine ([16]; 100 mg/kg i.p.): 7 mm
ABA, inhibition zone of urine ([16]; 100 mg/kg or.): 7 mm
ABA, inhibition zone of urine ([17]; 100 mg/kg i.p.): 28 mm
ABA, inhibition zone of urine ([17]; 100 mg/kg or.): 7 mm
ABA, inhibition zone of urine ([18]; 100 mg/kg i.p.): 7 mm
ABA, inhibition zone of urine ([18]; 100 mg/kg or.): 7 mm
ABA, inhibition zone of urine ([19]; 100 mg/kg i.p.): 24 mm
ABA, inhibition zone of urine ([19]; 100 mg/kg or.): 8 mm
ABA, inhibition zone of urine ([20]; 100 mg/kg i.p.): 36 mm
ABA, inhibition zone of urine ([20]; 100 mg/kg or.): 8 mm
ABA, inhibition zone of urine ([21]; 100 mg/kg i.p.): 32 mm
ABA, inhibition zone of urine ([21]; 100 mg/kg or.): 7 mm

COP(=O)(O)NC(=O)N[C@@H](C(=O)N[C@@H]1C(=O)N2[C@@H]1SC(C)(C)[C@@H]2C(=O)O)c1ccc(O)cc1
MIC ([1]; agar serial dilution): 0.75 µg/mL (≈ 1.49 µM)
MIC [1, 35]: 0.75 µg/mL (≈ 1.49 µM)
MIC [22]: 3 µg/mL (≈ 5.97 µM)
MIC ([2]; agar serial dilution): 100 µg/mL (≈ 199 µM)
MIC ([2]; tables B-E): 100 µg/mL (≈ 199 µM)
MIC ([23]; agar serial dilution): 6 µg/mL (≈ 11.9 µM)
MIC ([23]; tables B-E): 6 µg/mL (≈ 11.9 µM)
MIC [24]: 6 µg/mL (≈ 11.9 µM)
MIC [25]: 6 µg/mL (≈ 11.9 µM)
MIC ([26]; agar serial dilution): 0.5 µg/mL (≈ 0.995 µM)
MIC ([26]; tables B-E): 0.5 µg/mL (≈ 0.995 µM)
MIC ([4]; agar serial dilution): 3 µg/mL (≈ 5.97 µM)
MIC ([4]; tables B-E): 3 µg/mL (≈ 5.97 µM)
MIC ([5]; tables B-D): 0.45 µg/mL (≈ 0.896 µM)
MIC [7]: 1.2 µg/mL (≈ 2.39 µM)
MIC [8]: 60 µg/mL (≈ 119 µM)
MIC [9]: 4 µg/mL (≈ 7.96 µM)
MIC ([9]; tables B-E): 4 µg/mL (≈ 7.96 µM)
MIC [27]: 3 µg/mL (≈ 5.97 µM)
MIC [10]: 6 µg/mL (≈ 11.9 µM)
MIC [11]: 100 µg/mL (≈ 199 µM)
MIC [13]: 1.2 µg/mL (≈ 2.39 µM)
ABA, inhibition zone of urine ([14]; 100 mg/kg i.p.): 19 mm
ABA, inhibition zone of urine ([14]; 100 mg/kg or.): 7 mm
ABA, inhibition zone of urine ([15]; 100 mg/kg i.p.): 25 mm
ABA, inhibition zone of urine ([15]; 100 mg/kg or.): 16 mm
ABA, inhibition zone of urine ([16]; 100 mg/kg i.p.): 7 mm
ABA, inhibition zone of urine ([16]; 100 mg/kg or.): 7 mm
ABA, inhibition zone of urine ([17]; 100 mg/kg i.p.): 22 mm
ABA, inhibition zone of urine ([17]; 100 mg/kg or.): 10 mm
ABA, inhibition zone of urine ([18]; 100 mg/kg i.p.): 7 mm
ABA, inhibition zone of urine ([18]; 100 mg/kg or.): 7 mm
ABA, inhibition zone of urine ([19]; 100 mg/kg i.p.): 26 mm
ABA, inhibition zone of urine ([19]; 100 mg/kg or.): 16 mm
ABA, inhibition zone of urine ([28]; 100 mg/kg i.p.): 12 mm
ABA, inhibition zone of urine ([28]; 100 mg/kg or.): 7 mm
ABA, inhibition zone of urine ([29]; 100 mg/kg i.p.): 32 mm
ABA, inhibition zone of urine ([29]; 100 mg/kg or.): 26 mm
ABA, inhibition zone of urine ([20]; 100 mg/kg i.p.): 32 mm
ABA, inhibition zone of urine ([20]; 100 mg/kg or.): 17 mm
ABA, inhibition zone of urine ([21]; 100 mg/kg i.p.): 28 mm
ABA, inhibition zone of urine ([21]; 100 mg/kg or.): 14 mm

CCOP(=O)(O)NC(=O)N[C@@H](C(=O)N[C@@H]1C(=O)N2[C@@H]1SC(C)(C)[C@@H]2C(=O)O)c1ccc(O)cc1
MIC ([1]; agar serial dilution): 0.75 µg/mL (≈ 1.45 µM)
MIC [1, 35]: 0.75 µg/mL (≈ 1.45 µM)
MIC ([2]; agar serial dilution): 100 µg/mL (≈ 194 µM)
MIC ([2]; tables B-E): > 100 µg/mL
MIC [30]: 3 µg/mL (≈ 5.81 µM)
MIC ([23]; agar serial dilution): 3 µg/mL (≈ 5.81 µM)
MIC ([23]; tables B-E): 6 µg/mL (≈ 11.6 µM)
MIC [24]: 0.75 µg/mL (≈ 1.45 µM)
MIC [31]: 0.45 µg/mL (≈ 0.871 µM)
MIC ([32]; agar serial dilution): 0.5 µg/mL (≈ 0.968 µM)
MIC ([32]; tables B-E): 0.5 µg/mL (≈ 0.968 µM)
MIC [25]: 6 µg/mL (≈ 11.6 µM)
MIC ([3]; agar serial dilution): 0.06 µg/mL (≈ 0.116 µM)
MIC ([3]; tables B-E): 0.06 µg/mL (≈ 0.116 µM)
MIC ([26]; agar serial dilution): 0.12 µg/mL (≈ 0.232 µM)
MIC ([26]; tables B-E): 0.12 µg/mL (≈ 0.232 µM)
MIC ([4]; agar serial dilution): 3 µg/mL (≈ 5.81 µM)
MIC ([4]; tables B-E): 3 µg/mL (≈ 5.81 µM)
MIC [5]: 0.3 µg/mL (≈ 0.581 µM)
MIC ([5]; tables B-D): 0.3 µg/mL (≈ 0.581 µM)
MIC [8]: 30 µg/mL (≈ 58.1 µM)
MIC [33]: 11 µg/mL (≈ 21.3 µM)
MIC [9]: 6 µg/mL (≈ 11.6 µM)
MIC ([9]; tables B-E): 6 µg/mL (≈ 11.6 µM)
MIC ([34]; agar serial dilution): 3 µg/mL (≈ 5.81 µM)
MIC ([34]; tables B-E): 3 µg/mL (≈ 5.81 µM)
MIC [10]: 3 µg/mL (≈ 5.81 µM)
MIC [11]: 100 µg/mL (≈ 194 µM)
MIC [12]: 25 µg/mL (≈ 48.4 µM)
MIC [13]: 1.2 µg/mL (≈ 2.32 µM)
ABA, inhibition zone of urine ([14]; 100 mg/kg i.p.): 19 mm
ABA, inhibition zone of urine ([14]; 100 mg/kg or.): 8 mm
ABA, inhibition zone of urine ([15]; 100 mg/kg i.p.): 26 mm
ABA, inhibition zone of urine ([15]; 100 mg/kg or.): 11 mm
ABA, inhibition zone of urine ([16]; 100 mg/kg i.p.): 7 mm
ABA, inhibition zone of urine ([16]; 100 mg/kg or.): 7 mm
ABA, inhibition zone of urine ([17]; 100 mg/kg i.p.): 24 mm
ABA, inhibition zone of urine ([17]; 100 mg/kg or.): 10 mm
ABA, inhibition zone of urine ([18]; 100 mg/kg i.p.): 7 mm
ABA, inhibition zone of urine ([18]; 100 mg/kg or.): 7 mm
ABA, inhibition zone of urine ([19]; 100 mg/kg i.p.): 31 mm
ABA, inhibition zone of urine ([19]; 100 mg/kg or.): 18 mm
ABA, inhibition zone of urine ([28]; 100 mg/kg i.p.): 11 mm
ABA, inhibition zone of urine ([28]; 100 mg/kg or.): 7 mm
ABA, inhibition zone of urine ([29]; 100 mg/kg i.p.): 22 mm
ABA, inhibition zone of urine ([29]; 100 mg/kg or.): 13 mm
ABA, inhibition zone of urine ([20]; 100 mg/kg i.p.): 31 mm
ABA, inhibition zone of urine ([20]; 100 mg/kg or.): 16 mm
ABA, inhibition zone of urine ([21]; 100 mg/kg i.p.): 26 mm
ABA, inhibition zone of urine ([21]; 100 mg/kg or.): 13 mm
